Measured values from several laboratories, pooled; numbers as filed in NIAID ChemDB.

All rows: whole-cell or culture tests; agent: Hepatitis C virus; read-out: EC50

Neighbouring rows are from separate reports. Two numbers with a dash give a range or band. Blank or dashed fields: not listed here. ECn: concentration that inhibits the pathogen or its effect by n%.

SMILES	method	cell line	strain or isolate	mutations	conditions	result
COc1c(CC=C(C)C)c(O)cc2oc(=O)c3c(c12)Cc1cc(O)ccc1-3	microscopy / fluorescence	Huh7.5	2a			4.6 µg/mL
N=C1Sc2ccccc2C2=NCCCN12	luminescence	n4mBid				12 µM
NC(=O)c1nn(Cc2cccc(NC(=O)c3cccc([N+](=O)[O-])c3)c2)c2ccccc12	fluorescence	Huh7.5.1	J399EM			0.213 µM
C[C@@]1(O)[C@H](O)[C@@H](CO)O[C@H]1n1cnc2c(N)ncnc21	luciferase	Huh7 replicon	2a JFH-1			0.27 µM
N#Cc1c(-c2ccccc2-c2ccco2)nc(SCc2nc3ccccc3[nH]2)[nH]c1=O	replicon / PCR	Huh7				0.129 µM
CCCN(CC(=O)NCc1ccccc1)C(=O)CCN1C(=O)[C@H](C)C2CC[C@H](C)C3CC[C@]4(C)OO[C@]32C1O4	replicon	Huh 5-2				>70 µM
CCC[C@H](NC(=O)[C@@H]1[C@H]2CCC[C@H]2CN1C(=O)[C@@H](NC(=O)[C@@H](NC(=O)c1cnccn1)C1CCCCC1)C(C)(C)C)C(=O)C(=O)NC1CC1	PCR	Huh7	1a H77	T1280A S1358P D1432N F1809L I1839V		0.7 µM
CC1=CC[C@H](C(=O)N(c2cc(C#CC(C)(C)C)sc2C(=O)O)C2CCC(O)(CO[C@H]3CCOC3)CC2)CC1	luciferase	Huh7-Lunet	GT 1a-H77			0.011 µM
C[C@@]1(O)[C@H](O)[C@@H](CO)O[C@H]1n1cnc2c(N)ncnc21	luciferase / replicon	Huh7	GT1b			0.2 µM
CC[C@H](C)C(=O)O[C@H]1C[C@H](O)C=C2C=C[C@H](C)C(CC[C@@H](O)C[C@H](O)CC(=O)O)[C@H]21	luciferase / replicon	Huh 9-13				>20 µM
O=C1Nc2ncn(Cc3ccccc3)c2C(=O)N(Cc2ccccc2)N1	cytopathic effect	HepG2.2.15				>500 µM
CC(C)(C)NC(=O)N[C@H](C(=O)N1C[C@H]2[C@@H]([C@H]1C(=O)NC(CC1CCC1)C(=O)C(N)=O)C2(C)C)C(C)(C)C	luciferase	1C	GT3a	P89L K583E		0.368 µM
COc1cc2oc(=O)c(-c3ccc(O)cc3O)cc2c(OC)c1CC=C(C)C	microscopy / fluorescence	Huh7.5	2a			7.2 µg/mL
CC[C@H]1C[C@]1(NC(=O)[C@@H]1C[C@@H]2CN1C(=O)[C@H](C(C)(C)C)NC(=O)OCC(C)(C)CCCCc1cccc3c1CN(C3)C(=O)O2)C(=O)NS(=O)(=O)C1CC1	antigen	Huh7.5	NZL1			4.786 µM
Cc1cc2c(cc1-c1cc(/C=C/C(=O)O)ccc1O)C(C)(C)CCC2(C)C	MTT	Huh7.5.1				0.00026 µM
CCC[C@H](NC(=O)[C@@H]1[C@H]2CCC[C@H]2CN1C(=O)[C@@H](NC(=O)[C@@H](NC(=O)c1cnccn1)C1CCCCC1)C(C)(C)C)C(=O)C(=O)NC1CC1	luciferase	1C	GT1b			0.429 µM
C[C@@]1(O)[C@H](O)[C@@H](CO)O[C@H]1n1cnc2c(N)ncnc21	cytopathic effect	Con-1				0.3031 µM
Nc1nc(=O)c2[nH]cnc2c(=O)[nH]1	cytopathic effect	HepG2.2.15				>500 µM
CN(C)Cc1c(C(=O)O)sc2c(C3CCCCC3)c(-c3ccc(Cl)cc3)n(CC(=O)N3CCOCC3)c12		Huh7				1.9 µM
CCC[C@H](NC(=O)[C@@H]1[C@H]2CCC[C@H]2CN1C(=O)[C@@H](NC(=O)[C@@H](NC(=O)c1cnccn1)C1CCCCC1)C(C)(C)C)C(=O)C(=O)NC1CC1	antigen	Huh7.5	JFH1Res	L1062M R1181K		4.763 µM
CC1(C)O[C@H]2[C@@H]3NC(=O)c4cc5c(cc4[C@H]3C[C@H](O)[C@H]2O1)OCO5	antigen / microscopy	Huh7.5	Synthesized HCV RNA			>11 µM
N#Cc1c(-c2ccc(F)cc2)nc(NCc2nc3ccccc3[nH]2)[nH]c1=O	replicon / PCR	Huh7				0.277 µM
NC(=O)c1nn(Cc2ccccc2NC(=O)C2CC2)c2ccccc12	fluorescence	Huh7.5.1	J399EM			>10 µM
CC(C)C[C@H]1C(=O)N2CCC[C@H]2[C@]2(O)O[C@](NC(=O)[C@@H]3C=C4c5cccc6[nH]c(Br)c(c56)C[C@H]4N(C)C3)(C(C)C)C(=O)N12	luminescence	n4mBid				2 µM
CCCCCCCOc1cc2c(cc1/C(C)=C/c1ccc(C(=O)O)cc1)C(C)(C)CCS2(=O)=O	MTT	Huh7.5.1				0.000943 µM
[N-]=[N+]=N[C@]1(CO)O[C@@H](n2ccc(N)nc2=O)[C@H](O)[C@@H]1O	luciferase	1C	Con1			2.4 µM
CCN(CC(=O)NCc1ccccc1)C(=O)CCN1C(=O)[C@H](C)C2CC[C@H](C)C3CC[C@]4(C)OO[C@]32C1O4	PCR	Huh7.5.1	JFH-1/CS-N6			31 µM
C=CC(C)(C)c1cc(/C=C/C(=O)c2ccc(O)cc2)c(OC)cc1O	microscopy / fluorescence	Huh7.5	2a			2.5 µg/mL
COc1ccc(NC(=O)c2ccc(-c3ccc(-c4noc(C)n4)cc3C)cc2)cc1N1CCN(C)CC1	luminescence	n4mBid				1.6 µM
CC(C)N1CC[C@@H](N2CCn3c(c(C4CCCCC4)c4sc(C(=O)O)cc43)-c3ccccc3C2)C1		Huh7				0.19 µM
C[C@@]1(O)[C@H](O)[C@@H](CO)O[C@H]1n1cnc2c(N)ncnc21	luciferase / reporter gene	Huh7.5	genotype 1b	Y93H		0.0292 µM
CC(C)CN(CC(=O)NCc1ccccc1)C(=O)CCN1C(=O)[C@H](C)C2CC[C@H](C)C3CC[C@]4(C)OO[C@]32C1O4	replicon	Huh 5-2				5 µM
CN(C)Cc1c(C(=O)O)sc2c(C3CCCCC3)c(-c3ccc(Cl)cc3)n(C)c12		Huh7				1.2 µM
C[C@@]1(O)[C@H](O)[C@@H](CO)O[C@H]1n1ccc(N)nc1=O	luciferase / replicon	Huh7	GT1b			0.7671 µM
Fc1ccccc1-c1nc2ccn(Cc3ccc(-c4ccc(C(F)(F)F)cc4C(F)(F)F)nn3)cc-2n1	luciferase	Huh7	6a			0.0855 µM
N#Cc1c(-c2ccc(O)cc2)nc(SCc2nc3ccccc3[nH]2)[nH]c1=O	replicon / PCR	Huh7				0.123 µM
CCCCCCCCCCCCNc1nc(=O)c2ncn([C@@H]3C[C@H](O)[C@@H](CO)O3)c2c(=O)[nH]1	cytopathic effect	HepG2.2.15				>500 µM
C[C@@]1(O)[C@H](O)[C@@H](CO)O[C@H]1n1cnc2c(N)ncnc21		Huh7			24 h	0.25 µM
[N-]=[N+]=N[C@]1(CO)O[C@@H](n2ccc(N)nc2=O)[C@H](O)[C@@H]1O	PCR	HuH6				>33 µM
CC(C)OC(=O)[C@H](C)N[P@](=O)(OC[C@H]1O[C@@](C#N)(c2ccc3c(N)ncnn23)[C@](C)(O)[C@@H]1OC(=O)C(C)C)Oc1ccccc1	luciferase	Huh7 replicon	3a S52			0.048 µM
O=C(O)c1c(-c2ccccc2O)nc(NCc2nc3ccccc3[nH]2)[nH]c1=O	replicon / PCR	Huh7				0.657 µM
O=C(O)c1ccc2c(c1)nc(-c1ccc(OCc3cc(N4CCCC4=O)ccc3-c3ccc(Cl)cc3)cc1F)n2C1CCCCC1	luciferase / replicon	Huh7	GT1b			0.2571 µM
CNC(=O)c1c(-c2ccc(F)cc2)oc2cc(N(CCO)S(C)(=O)=O)c(C3CC3)cc12	luciferase	1C	GT1b			0.023 µM
C[C@@]1(O)[C@H](O)[C@@H](CO)O[C@H]1n1cnc2c(N)ncnc21	luciferase	Huh7	4a			0.2096 µM
CNC(=O)c1c(-c2ccc(F)cc2)oc2cc(N(CCO)S(C)(=O)=O)c(C3CC3)cc12	PCR	Huh 9-13				>33 µM
O=c1c(O)c(-c2ccc(O)c(O)c2)oc2cc(O)c(O)c(O)c12	PCR	Huh7.5	J6/JFH1			40.2 µM
CN1CCCC(CN(C)C(=O)Cn2c(-c3ccccc3)c(C3CCCCC3)c3sc(C(=O)O)cc32)C1		Huh7				1.2 µM
O=C(/C=C/c1ccc(O)cc1)c1ccc(O)cc1O	microscopy / fluorescence	Huh7.5	2a			3.7 µg/mL
CN(C)CCN1C(=O)Cn2c(c(C3CCCCC3)c3sc(C(=O)O)cc32)-c2ccccc21		Huh7				0.7 µM
C[C@@]1(O)[C@H](O)[C@@H](CO)O[C@H]1n1cnc2c(N)ncnc21	luciferase	Huh7-Lunet	GT2a (JFH1)			0.672 µM
CCCCCOc1cc2c(cc1-c1cc(/C=C/C(=O)O)ccc1O)C(C)(C)CCC2(C)C	MTT	Huh7.5.1				0.00568 µM
CC1=CC[C@H](C(=O)N(c2cc(C#CC(C)(C)C)sc2C(=O)O)C2CCC(O)(CO[C@H]3CCOC3)CC2)CC1	luciferase	1C	GT1b			0.0035 µM
NC(=O)c1nn(Cc2ccc(NC(=O)C3CC3)cc2)c2ccccc12	fluorescence	Huh7.5.1	J399EM			>10 µM
Nc1nc(=O)c2ncn(COCCOCc3ccccc3)c2c(=O)[nH]1	cytopathic effect	HepG2.2.15				10–15 µM
CC1(C)[C@@H](O[C@H]2O[C@H](C(=O)O)[C@@H](O)[C@H](O)[C@H]2O[C@@H]2O[C@H](C(=O)O)[C@@H](O)[C@H](O)[C@H]2O)CC[C@]2(C)[C@H]3C(=O)C=C4[C@@H]5C[C@@](C)(C(=O)O)CC[C@]5(C)CC[C@@]4(C)[C@]3(C)CC[C@@H]12	microscopy / fluorescence	Huh7.5	2a			180 µg/mL
CC[C@@H]1C[C@]1(NC(=O)[C@@H]1C[C@@H](Oc2cc(-c3csc(NC(C)C)n3)nc3c(Cl)c(OCCN4CCOCC4)ccc23)CN1C(=O)[C@@H](NC(=O)OC1C[C@@H]2C[C@@H]2C1)C(C)(C)C)C(=O)O	luciferase	1C	GT1b			0.009 µM
CCCCCCCCCCCCNc1nc(=O)c2ncn([C@@H]3O[C@H](CO)[C@@H](O)[C@H]3O)c2c(=O)[nH]1	cytopathic effect	HepG2.2.15				>500 µM
NC(=O)c1nn(Cc2cccc(NC(=O)c3ccccc3[N+](=O)[O-])c2)c2ccccc12	fluorescence	Huh7.5.1	J399EM			0.739 µM
COc1ccc2c(O[C@@H]3C[C@H]4C(=O)N[C@]5(C(=O)O)C[C@H]5/C=C\CCCCC[C@H](NC(=O)OC5CCCC5)C(=O)N4C3)cc(-c3csc(NC(C)C)n3)nc2c1	PCR	Huh 9-13				>22 µM
Nc1nc(=O)c2ncn(CCOCP(=O)(O)O)c2c(=O)[nH]1	cytopathic effect	HepG2.2.15				100 µM

A second listing of 8 rows from above:

SMILES | method | cell line | strain or isolate | mutations | conditions | result
C[C@@]1(O)[C@H](O)[C@@H](CO)O[C@H]1n1cnc2c(N)ncnc21 | cytopathic effect | Con-1 |  |  |  | 0.3031 µM
CC1(C)O[C@H]2[C@@H]3NC(=O)c4cc5c(cc4[C@H]3C[C@H](O)[C@H]2O1)OCO5 | antigen / microscopy | Huh7.5 | Synthesized HCV RNA |  |  | >11 µM
O=C(O)c1ccc2c(c1)nc(-c1ccc(OCc3cc(N4CCCC4=O)ccc3-c3ccc(Cl)cc3)cc1F)n2C1CCCCC1 | luciferase / replicon | Huh7 | GT1b |  |  | 0.2571 µM
CC[C@@H]1C[C@]1(NC(=O)[C@@H]1C[C@@H](Oc2cc(-c3csc(NC(C)C)n3)nc3c(Cl)c(OCCN4CCOCC4)ccc23)CN1C(=O)[C@@H](NC(=O)OC1C[C@@H]2C[C@@H]2C1)C(C)(C)C)C(=O)O | luciferase | 1C | GT1b |  |  | 0.009 µM
CN1CCCC(CN(C)C(=O)Cn2c(-c3ccccc3)c(C3CCCCC3)c3sc(C(=O)O)cc32)C1 |  | Huh7 |  |  |  | 1.2 µM
CCC[C@H](NC(=O)[C@@H]1[C@H]2CCC[C@H]2CN1C(=O)[C@@H](NC(=O)[C@@H](NC(=O)c1cnccn1)C1CCCCC1)C(C)(C)C)C(=O)C(=O)NC1CC1 | luciferase | 1C | GT1b |  |  | 0.429 µM
NC(=O)c1nn(Cc2ccc(NC(=O)C3CC3)cc2)c2ccccc12 | fluorescence | Huh7.5.1 | J399EM |  |  | >10 µM
CCCN(CC(=O)NCc1ccccc1)C(=O)CCN1C(=O)[C@H](C)C2CC[C@H](C)C3CC[C@]4(C)OO[C@]32C1O4 | replicon | Huh 5-2 |  |  |  | >70 µM